Pooled drug test results. Numbers come from NIAID ChemDB, via PubChem.

All rows: tests in culture; organism: Candida albicans; measure: MIC

Neighbouring rows are from separate reports.

smiles	strain	result
Nc1ccc2oc(=O)ccc2c1	ATCC 14053	500 µg/mL
COc1cc(Cc2cnc(N)nc2N)cc(OC)c1OCCCNc1ccc(S(=O)(=O)c2ccc(N)cc2)cc1	YEM15 (CDR1CDR2UP)	>64 µg/mL
O=C1C(Sc2ccc(Cl)cc2)=CC(=O)c2c(O)cccc21	-	2 µg/mL
CN1CCC2=C(CCCC2CCc2ccc(Cl)c(Cl)c2)C1	2005E	8 µg/mL
CCC[C@H](N)C(=O)N[C@H]1CCN(c2c(F)cn3c(=O)c(C(=O)O)cc(C4CC4)c3c2C)C1.Cl	CCH442	>100 µg/mL
Cc1ccc2ccc(=O)oc2c1	ATCC 14053	1000 µg/mL
Cc1c(N2CCC(N)CC2)c(F)cn2c(=O)c(C(=O)O)cc(C3CC3)c12	CCH442	>100 µg/mL
COc1cccc(/C=C/C(=O)c2ccccc2)c1OC	ATCC 10231	>50 µg/mL
c1ccc(CC2CCCc3cnccc32)cc1	2402E	31 µg/mL
c1ccc2c(c1)cc1[nH]c3ccccc3c1[n+]2CC1CC1	B311	250 µg/mL
COc1ccc(/C=C/C(=O)c2ccccc2)cc1OC	ATCC 10231	>50 µg/mL
COc1cccc2c1C(=O)C=C(Sc1ccccc1F)C2=O	-	8 µg/mL
COc1c2ccoc2c(OC)c2oc(=O)ccc12	ATCC 14053	500 µg/mL
COC[n+]1c2ccccc2cc2[nH]c3ccccc3c21	B311	250 µg/mL
CN1CCC2=C(CCCC2(Cc2ccccc2)Cc2ccccc2)C1	C316	62 µg/mL
Cc1c(N2CCCC(C)(N)C2)c(F)cn2c(=O)c(C(=O)O)cc(C3CC3)c12.Cl	CCH442	>100 µg/mL
COc1cc(O)c2c(c1)C(=O)c1c(cc3c(c1O)-c1c(cc(C)c(C(=O)NC(C)C(=O)O)c1O)[C@H](OC1OC(C)C4C(O[C@H](OCCO)CN4C)C1O)[C@H]3O)C2=O	A9540	6.3 µg/mL
CCC[n+]1c2ccccc2cc2[nH]c3ccccc3c21	B311	250 µg/mL
O=c1ccc2ccccc2o1	ATCC 14053	500 µg/mL
Brc1ccc(CCC2CCCc3cnccc32)cc1	C316	31 µg/mL
CC[n+]1c2ccccc2cc2[nH]c3ccccc3c21	B311	250 µg/mL
CN1CCC2=C(CCCC2CCc2ccc(Cl)cc2Cl)C1	1208E	62 µg/mL
COC(=O)C(C(=O)OC)C(CC(=O)c1ccccc1)c1ccc2ccccc2c1	ATCC 10231	>50 µg/mL
N#CC[n+]1c2ccccc2cc2[nH]c3ccccc3c21	B311	250 µg/mL
O=C1C(Sc2ccc(F)cc2F)=C(Sc2ccc(F)cc2F)C(=O)c2c(O)cccc21	-	8 µg/mL
COC[C@@H](N)[C@@H]1CCN(c2c(F)cn3c(=O)c(C(=O)O)cc(C4CC4)c3c2C)C1.Cl	CCH442	100 µg/mL
CNC1C(C)OC(O[C@H]2c3cc(C)c(C(=O)NC(C)C(=O)OC)c(O)c3-c3c(cc4c(c3O)C(=O)c3cc(OC)cc(O)c3C4=O)[C@@H]2O)C(O)C1OC1OC(CO)C(O)C(O)C1F	A9540	12.5 µg/mL
c1ccc(CC[n+]2c3ccccc3cc3[nH]c4ccccc4c32)cc1	B311	250 µg/mL
COc1cccc(CCC2CCCc3cnccc32)c1	C316	31 µg/mL
COc1cc(O)c2c(c1)C(=O)c1c(cc3c(c1O)-c1c(cc(C)c(C(=O)NC(C)C(=O)O)c1O)[C@H](OC1COC4C(OC5OCC(O)C(O)C5O)C1OC(=O)N4C)[C@H]3O)C2=O	A9540	6.3 µg/mL
C=CC[C@@H]1/C=C(/C)C[C@H](C)C[C@H](OC)[C@H]2O[C@@](O)(C(=O)C(=O)N3CCCC[C@H]3C(=O)O[C@H](/C(C)=C/[C@@H]3CC[C@@H](O)[C@H](OC)C3)[C@H](C)[C@@H](O)CC1=O)[C@H](C)C[C@@H]2OC	DAY364 (genotype CNB1/CNB1)	>3.12 µg/mL
CC(=O)N1CCN(c2ccc(OC[C@H]3CO[C@](Cn4ccnc4)(c4ccc(Cl)cc4Cl)O3)cc2)CC1	Isogenic isolate 14 Erg11 (4-5X) R467K	0.03 µg/mL
C[C@@H]1C[C@@H]([C@H](O)CC2CC(=O)NC(=O)C2)C(=O)[C@@H](C)C1	Isolate 5	0.53 µM
Cc1c(N2CCC(C(C)N)C2)c(F)cn2c(=O)c(C(=O)O)cc(C3CC3)c12.Cl	CCH442	>100 µg/mL
O=C1C(Sc2ccccc2)=C(Sc2ccccc2)C(=O)c2c(O)cccc21	-	64 µg/mL
CN1CCC2=C(CCCC2CCc2ccc(F)cc2)C1	2005E	8 µg/mL
COc1cc(O)c2c(c1)C(=O)c1c(cc3c(c1O)-c1c(cc(C)c(C(=O)N[C@H](CO)C(=O)O)c1O)[C@H](O[C@@H]1O[C@H](C)[C@H](O)[C@H](O)[C@H]1O)[C@H]3O)C2=O	A9540	3.1 µg/mL
O=C(/C=C/c1ccco1)c1ccc(Cl)cc1Cl	ATCC 10231	>50 µg/mL
C=C(Cl)/C=C/[C@H](O)CC(=C)C[C@H]1OC2[C@@H](O)[C@]3(O)C[C@@H](O)[C@H](C)[C@H](CCC/C=C\[C@@H]4C[C@@H](O)C[C@]5(C[C@H](OC)CC(CC(=O)[C@@H](C)[C@H](OC(C)=O)[C@@H](C)C(=C)C[C@@H]6C[C@@](C)(O)C[C@]7(C[C@H](OC(C)=O)CC(CC(=O)O[C@@H]([C@@H]1O)[C@H]2C)O7)O6)O5)O4)O3	ATCC 14053	3.12 µg/mL
O=C1C(Sc2ccc(F)cc2)=CC(=O)c2c(O)cccc21	-	2 µg/mL
CN1CCC2=C(CCCC2CCc2ccc(Cl)cc2)C1	C316	8 µg/mL
COc1cccc(/C=C/C(=O)c2ccccc2)c1	ATCC 10231	>50 µg/mL
COc1cc(OC)cc(N2C3CCC2CC(c2cnc(N)nc2N)C3)c1	YEM13 (BENUP)	>64 µg/mL
COc1cccc2c1C(=O)C=C(Sc1ccc(Cl)cc1)C2=O	-	16 µg/mL
COc1cc(O)c2c(c1)C(=O)c1c(cc3c(c1O)-c1c(cc(C)c(C(=O)NC(C)C(=O)O)c1O)[C@H](O)[C@H]3OC1OC(C)C(O)C(O)C1O)C2=O	A9540	>100 µg/mL

A second listing of 6 rows from above:

smiles,strain,result
O=C1C(Sc2ccc(F)cc2F)=C(Sc2ccc(F)cc2F)C(=O)c2c(O)cccc21,-,8 µg/mL
COc1cccc2c1C(=O)C=C(Sc1ccccc1F)C2=O,-,8 µg/mL
COc1ccc(/C=C/C(=O)c2ccccc2)cc1OC,ATCC 10231,>50 µg/mL
CN1CCC2=C(CCCC2CCc2ccc(F)cc2)C1,2005E,8 µg/mL
CN1CCC2=C(CCCC2CCc2ccc(Cl)cc2)C1,C316,8 µg/mL
C=C(Cl)/C=C/[C@H](O)CC(=C)C[C@H]1OC2[C@@H](O)[C@]3(O)C[C@@H](O)[C@H](C)[C@H](CCC/C=C\[C@@H]4C[C@@H](O)C[C@]5(C[C@H](OC)CC(CC(=O)[C@@H](C)[C@H](OC(C)=O)[C@@H](C)C(=C)C[C@@H]6C[C@@](C)(O)C[C@]7(C[C@H](OC(C)=O)CC(CC(=O)O[C@@H]([C@@H]1O)[C@H]2C)O7)O6)O5)O4)O3,ATCC 14053,3.12 µg/mL

An empty or dashed field is not shown.